Laboratory results from PMC4673825, “Active site coupling in Plasmodium falciparum GMP synthetase is triggered by domain rotation” (Nature Communications, 2015).

How the values were obtained:
[1] = tested on: O=c1[nH]c(=O)c2ncn([C@@H]3O[C@H](COP(=O)(O)O)[C@@H](O)[C@H]3O)c2[nH]1; experiment: purified protein
[2] = tested on: NC(=O)CC[C@H](N)C(=O)O; experiment: purified protein; details: 2 mM ATP, 150 μM XMP, 20 mM MgCl2, pH 8.5, 25 °C; pH 8.5; 25.0 °C
[3] = 2 mM ATP, 100 mM NH4Cl, 20 mM MgCl2, pH 8.5, 25 °C, NH4Cl-dependent, pH 8.5, 25.0 °C

Substance | Km ([1]; saturating ATP, activation of glutaminase activity) [µM] | Km [1, 3] [µM] | kcat [1, 3] [s⁻¹] | kcat/Km [1, 3] [M⁻¹ s⁻¹] | Km [2] [µM] | kcat [2] [s⁻¹] | kcat/Km [2] [M⁻¹ s⁻¹]
PfGMPS (Plasmodium falciparum 3D7; D371A) | 0.20 ± 0.02 | – | – | – | – | – | –
PfGMPS (Plasmodium falciparum 3D7; C113A/C89A) | – | 19 ± 1.9 | 1.68 | 88600 | – | – | –
PfGMPS (Plasmodium falciparum 3D7; C89A) | – | 18 ± 1 | 1.5 | 83300 | – | – | –
PfGMPS (Plasmodium falciparum 3D7; Y212W) | – | – | – | – | 1010 ± 40 | 0.9 | 883
PfGMPS (Plasmodium falciparum 3D7; D172A) | – | – | – | – | 62200 ± 3300 | 0.607 | 10
